A mixed list of measured activities; the numbers were collected in NIAID ChemDB.

All rows: tests in culture

Percent inhibition refers to the dose given; in toxicity tests it is the harm to the cells. MIC50, MIC90 and the like: level of inhibition, or share of isolates inhibited. Rows are shuffled and stem from different studies. a–b is a range or a potency band. ECn is the concentration giving n% inhibition of infection, replication or growth. An empty or dashed field is not shown.

smiles	organism	strain	mutations	cells	read by	conditions	endpoint	dose	value
C=Cc1cn([C@@H]2O[C@H](CO)[C@@H](O)[C@@H]2O)c(=O)[nH]c1=O	Varicella zoster virus	Kawaguchi	-	HELF	plaque count	-	inhibition	1 µg/mL	97%
C/C=C/C/C=C/CCC(=O)[C@H]1O[C@H]1C(N)=O	Escherichia coli	SJ260 (F143)	-	-	-	-	MIC	-	20 µg/mL
Oc1ccccc1N=Cc1ccc2c(c1)OCO2	Cryptococcus gattii	29/10893	-	-	-	-	MIC99	-	8 µg/mL
C[C@@H](c1ncncc1F)[C@](O)(Cn1cncn1)c1ccc(F)cc1F	Cryptococcus gattii	CBS 10514	-	-	broth dilution	-	MIC	-	0.008 µg/mL
COC(=O)N[C@H](C(=O)N1CCCC1c1ncc(-c2ccc(-c3ccc(-c4cnc([C@@H]5CC(C)CN5C(=O)[C@@H](NC(=O)CO)C(C)C)[nH]4)cc3)cc2)[nH]1)C(C)C	Hepatitis C virus	1a	L31M	Lunet	luciferase	-	EC50	-	0.00102 µM
NS(=O)(=O)O	Herpes simplex virus	-	-	Human amnion AV3 cells	cytopathic effect	-	inhibition	10 µg/mL	0%
CO[C@H]1/C=C/O[C@@]2(C)Oc3c(C)c(O)c4c(O)c(c(/C=N/N5CCN(C6CCCC6)CC5)c(O)c4c3C2=O)NC(=O)/C(C)=C\C=C\[C@H](C)[C@H](O)[C@@H](C)[C@@H](O)[C@@H](C)[C@H](OC(C)=O)[C@@H]1C	Mycobacterium avium intracellulare	LYN	-	-	-	-	MIC	-	0.5 µg/mL
O=C(NCc1ccc(Cl)cc1)c1c[nH]c2c(F)cccc2c1=O	Simian varicella-zoster virus	-	-	-	plaque count	-	EC50	-	4.3 µM
Nc1nc2c(ncn2COC(CO)CO)c(=O)[nH]1	Human cytomegalovirus	D10 (D341E)	-	-	plaque count	-	EC50	-	5.4 µM
C=CCc1ccc(O)c(OC)c1	Candida glabrata	2622	-	-	turbidity	-	MIC90	-	500 µg/mL
O=S(=O)([O-])c1cc(NS(=O)(=O)c2ccccc2)c2c(S(=O)(=O)[O-])cc(S(=O)(=O)[O-])cc2c1	Herpes simplex virus	-	-	Human amnion AV3 cells	cytopathic effect	-	inhibition	50 µg/mL	0%
Nc1ncnc2c1ncn2C=C1CC1CO	Human cytomegalovirus	VR4991 (ganciclovir-resistant)	-	-	plaque count	-	EC90	-	4.9 µM
CN[C@H]1CC[C@@H](c2ccc(Cl)c(Cl)c2)c2ccccc21	Cryptococcus neoformans	UM4	-	-	broth dilution	-	MFC	-	10 µg/mL
O=c1[nH]c(=O)n([C@@H]2O[C@H](CO)[C@@H](O)[C@@H]2O)cc1/C=C/Br	Varicella zoster virus	OKA	-	HELF	plaque count	-	inhibition	0.0001 µg/mL	0%
Cc1cc(CCCOc2c(C)cc(-c3noc(C(F)(F)F)n3)cc2C)on1	Rhinovirus	Isolate 21	-	OHIO HELA-I	cytopathic effect / visual reading	-	EC50	-	1.75 µg/mL
O=c1[nH]c(=O)n([C@H]2C[C@H](O)[C@@H](CO)O2)cc1I	Varicella zoster virus	YS	-	HELF	plaque count	-	inhibition	10 µg/mL	100%
S=c1oc2ccc(Br)cc2c(=S)n1-c1ccc(Cl)c(Cl)c1	Mycobacterium kansasii	My 235/80	-	-	-	14 d	MIC	-	4 µM
CCO/N=C/c1ccc(OCCC2CCN(c3ccc(Cl)nn3)CC2)cc1	Rhinovirus	6669-CV39 (ICAM-1 receptor group 61)	-	KB	neutral red	-	EC50	-	0.121 µM
Cc1coc2ccc(-n3c(C(=O)NCc4ccccc4)c4n(c3=O)CCN(C(=O)c3ccc(Br)c(Cl)c3)C4)cc12	Hepatitis B virus	-	-	HepG2.117	PCR	-	EC50	-	0.1–0.5 µM
CCOC(=O)c1c(C)nc(NCCCNc2ccnc3cc(Cl)ccc23)nc1-c1ccccc1	Cryptococcus gattii	1913 ER	-	-	-	-	MIC99	-	8 µg/mL
O=c1[nH]c(=O)n([C@@H]2O[C@H](CO)[C@@H](O)[C@@H]2O)cc1/C=C/Cl	Varicella zoster virus	KANNO	-	HELF	plaque count	-	inhibition	0.01 µg/mL	100%
CC(C)N=C(N)c1ccc2nc(-c3ccc4c(c3)Cc3cc(-c5nc6ccc(C(N)=NC(C)C)cc6[nH]5)ccc3-4)[nH]c2c1	Candida albicans	Isolate 1 (strain 2-76)	-	-	-	-	MFC	-	1.56 µg/mL
O=C(c1ccc(Br)c(Cl)c1)N1CCn2c(c3n(c2=O)CC2(COC2)CN(Cc2ccccc2)C3=O)C1	Hepatitis B virus	-	-	HepG2.117	PCR	-	EC50	-	0.5–5 µM
Oc1ccccc1N=Cc1ccc(F)cc1	Cryptococcus gattii	135L/03	-	-	-	-	MIC99	-	16 µg/mL
O=S(=O)([O-])c1ccc(O)c2ccccc12	Herpes simplex virus	-	-	Human amnion AV3 cells	cytopathic effect	-	inhibition	5 µg/mL	0%
Oc1ccccc1N=Cc1cccc(O)c1O	Cryptococcus neoformans	96806	-	-	-	-	MIC99	-	4 µg/mL
Cc1cc(-c2ccc(N=Nc3ccc4c(S(=O)(=O)O)cc(S(=O)(=O)O)c(N)c4c3O)c(C)c2)ccc1N=Nc1ccc2c(S(=O)(=O)O)cc(S(=O)(=O)O)c(N)c2c1O	Adenovirus	TYPE 3	-	Human amnion AV3 cells	cytopathic effect	-	inhibition	10 µg/mL	0%
C/C=C\[C@@H]1C[C@H](C(=O)O)N[C@H]1[C@@H](NC(C)=O)[C@](C)(CCC)OC	Influenza B virus	Isolate G42	-	MDCK	plaque count	-	EC50	-	<0.01 µg/mL
Nc1nc(=O)n([C@@H]2O[C@H](CO)[C@@H](O)[C@@H]2F)cc1I	Varicella zoster virus	KANNO	-	HELF	plaque count	-	inhibition	0.001 µg/mL	0%
O=C(O)c1ccc(S(=O)(=O)[O-])cc1C(=O)O	Rhinovirus	-	-	Human embryonic lung cells	cytopathic effect	-	inhibition	10 µg/mL	0%
O=[N+]([O-])c1ccc(C=Nc2ccccc2O)cc1	Cryptococcus gattii	29/10893	-	-	-	-	MIC99	-	16 µg/mL
O=C1C(c2[nH]c3ccc(S(=O)(=O)O)cc3c2O)=Nc2ccc(S(=O)(=O)O)cc21	Herpes simplex virus	-	-	Human conjunctiva cells	cytopathic effect	-	inhibition	5 µg/mL	0%
Cc1ccc2oc(=S)n(-c3ccc(Cl)cc3)c(=S)c2c1	Mycobacterium kansasii	6509/96	-	-	-	14 d	MIC	-	4 µM
C[C@@H](Oc1ccc(-n2c(C(=O)NCc3ccccc3)c3n(c2=O)CCN(C(=O)c2ccc(Br)c(Cl)c2)C3)cc1)C(F)(F)F	Hepatitis B virus	-	-	HepG2.117	PCR	-	EC50	-	0.5–5 µM
COc1ccc2oc(=O)n(-c3ccc(Cl)cc3)c(=S)c2c1	Mycobacterium kansasii	6509/96	-	-	-	21 d	MIC	-	16 µM
COc1ccc(-n2c(C(=O)NCc3cccc(C#N)c3)c3n(c2=O)CCN(C(=O)c2ccc(Cl)c(Cl)c2)C3)cc1	Hepatitis B virus	-	-	HepG2.117	PCR	-	EC50	-	0.5–5 µM
O=c1oc2ccc(F)cc2c(=S)n1-c1ccc(C(F)(F)F)cc1	Mycobacterium kansasii	My 235/80	-	-	-	14 d	MIC	-	8 µM
Oc1ccc(O)c(C=Nc2ccccc2O)c1	Cryptococcus neoformans	F-10	-	-	-	-	MIC99	-	11.3 µg/mL

2 of the rows above, restated:

smiles	organism	strain	mutations	cells	read by	conditions	endpoint	dose	value
CO[C@H]1/C=C/O[C@@]2(C)Oc3c(C)c(O)c4c(O)c(c(/C=N/N5CCN(C6CCCC6)CC5)c(O)c4c3C2=O)NC(=O)/C(C)=C\C=C\[C@H](C)[C@H](O)[C@@H](C)[C@@H](O)[C@@H](C)[C@H](OC(C)=O)[C@@H]1C	Mycobacterium avium intracellulare	LYN	-	-	-	-	MIC	-	0.5 µg/mL
C[C@@H](c1ncncc1F)[C@](O)(Cn1cncn1)c1ccc(F)cc1F	Cryptococcus gattii	CBS 10514	-	-	broth dilution	-	MIC	-	0.008 µg/mL